Record: PubChem BioAssay AID504761 (Drosophila RNAi Screening Center, 2011)
Test: 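Insect host genes that dengue virus relies on to spread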 (primary screen). System: D.Mel-2 cells from Drosophila. Knock-down reagent: long dsRNA against Drosophila genes. Conditions: infection with dengue virus type 2; dose and infection time not stated. Read-out: 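Cells stained for dengue envelope protein and imaged; percent of infected cells per well on duplicate plates, ranked by infection, with stained nuclei counted for cell number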. Reading the numbers: infection score: higher = more virus-infected cells; cell count: higher = more cells in the well. Hit rule: 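Low infection ranks in the two replicates (chance level up to 0.065) followed by a retest with a 1.5-fold or larger significant decrease, p below 0.05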. Meaning of the calls: active = confirmed: knock-down lowers infection; inactive = not picked or not confirmed.
The deposit covers about 22,000 reagents; below is an unselected part of those with a known target gene and a result. Over the whole deposit, 116 (0.52%) are marked active. 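Calls depend on retest data that are not deposited; infection was ranked per plate without normalising between plates; the unit of the infection score is not given.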 Raw values vary from plate to plate and are shown uncorrected. Unmarked entries are inactive. Further read-outs or replicates are left out here. Not stated in the record: the amount of reagent, the time to read-out.

IntS2 [DRSC20094] — infection score, replicate 1 = 2.96; cell count, replicate 1 = 5337
ara [DRSC22984] — infection score, replicate 1 = 2.94; cell count, replicate 1 = 5379
ara [DRSC25783] — infection score, replicate 1 = 2.15; cell count, replicate 1 = 6407
CG18063 [DRSC01968] — infection score, replicate 1 = 2.54; cell count, replicate 1 = 6659
Octbeta1R [DRSC16134] — infection score, replicate 1 = 2.98; cell count, replicate 1 = 1475
Octbeta1R [DRSC30030] — infection score, replicate 1 = 2.49; cell count, replicate 1 = 6617
CG13058 [DRSC09941] — infection score, replicate 1 = 1.26; cell count, replicate 1 = 5862
CG13058 [DRSC27898] — infection score, replicate 1 = 9.18; cell count, replicate 1 = 6516
Eip93F [DRSC23072] — infection score, replicate 1 = 5.6; cell count, replicate 1 = 6630
Eip93F [DRSC27506] — infection score, replicate 1 = 10.3; cell count, replicate 1 = 6570
croc [DRSC11884] — infection score, replicate 1 = 13.8; cell count, replicate 1 = 6199
croc [DRSC29346] — cell count, replicate 1 = 295
Pop5 [DRSC10074] — infection score, replicate 1 = 1.07; cell count, replicate 1 = 6615
Cyp6t1 [DRSC20564] — infection score, replicate 1 = 1.18; cell count, replicate 1 = 5502
Cyp6t1 [DRSC24235] — infection score, replicate 1 = 1.14; cell count, replicate 1 = 6252
Rsbp15 [DRSC14176] — infection score, replicate 1 = 2.76; cell count, replicate 1 = 6892
Rsbp15 [DRSC29051] — infection score, replicate 1 = 9.97; cell count, replicate 1 = 4322
Non1 [DRSC05954] — infection score, replicate 1 = 9.78; cell count, replicate 1 = 4765
fos28F (retired record) [DRSC03391] — infection score, replicate 1 = 2.05; cell count, replicate 1 = 6390
CG15740 [DRSC23079] — infection score, replicate 1 = 1.53; cell count, replicate 1 = 6156
CG15740 [DRSC28880] — infection score, replicate 1 = 9.8; cell count, replicate 1 = 3214

Laid out differently: results already given.
target gene	DRSC id	infection score, replicate 1	cell count, replicate 1
Octbeta1R	DRSC16134	2.98	1475
Octbeta1R	DRSC30030	2.49	6617
